A mixed list of measured activities; the numbers were collected in NIAID ChemDB.

All rows: growth or infection tests; agent: Mycobacterium avium complex

An empty or dashed field is not shown.

{"structure": "COc1cccc(CSc2nc3ccccc3[nH]2)c1", "endpoint": "MIC", "strain": "MY330/88", "result": "32 µM"}
{"structure": "CN1CCN(c2c(F)cc3c(=O)c(C(=O)O)cn(CCF)c3c2F)CC1", "endpoint": "MIC50", "strain": "16 isolates", "result": "50 µg/mL"}
{"structure": "CCn1cc(C(=O)O)c(=O)c2cc(F)c(N3CCNCC3)cc21", "endpoint": "MIC50", "strain": "63 isolates", "result": "16 µg/mL"}
{"structure": "CC1CN(c2nc3c(cc2F)c(=O)c(C(=O)O)cn3C2CC2)CC1N", "endpoint": "MIC90", "result": "21.8 µg/mL"}
{"structure": "CO[C@H]1/C=C/O[C@@]2(C)Oc3c(C)c(O)c4c(O)c(c5c(c4c3C2=O)NC2(CCN(CC(C)C)CC2)N=5)=NC(=O)/C(C)=C\\C=C\\[C@H](C)[C@H](O)[C@@H](C)[C@@H](O)[C@@H](C)[C@H](OC(C)=O)[C@@H]1C", "endpoint": "MIC", "strain": "3350-4", "result": "0.063 µg/mL"}
{"structure": "CCn1cc(C(=O)O)c(=O)c2cc(F)c(N3CCNC(C)C3)c(F)c21", "endpoint": "MIC50", "strain": "16 isolates", "result": "25 µg/mL"}
{"structure": "NC[C@H]1O[C@H](O[C@H]2[C@H](O)[C@@H](O[C@H]3O[C@H](CO)[C@@H](O)[C@H](N)[C@H]3O)[C@H](N)C[C@@H]2N)[C@H](O)[C@@H](O)[C@@H]1O", "endpoint": "MIC", "strain": "TMC 1411", "result": "0.19 µg/mL"}
{"structure": "Clc1ccccc1CSc1nc2ccccc2[nH]1", "endpoint": "MIC", "strain": "MY330/88", "result": "62 µM"}
{"structure": "NC[C@@H]1O[C@H](O[C@H]2[C@@H](O)[C@H](O[C@@H]3[C@@H](O)[C@H](N)C[C@H](N)[C@H]3O[C@H]3O[C@H](CO)[C@@H](O)C[C@H]3N)O[C@@H]2CO)[C@H](N)[C@@H](O)[C@@H]1O[C@H]1O[C@H](CO)[C@@H](O)[C@H](O)[C@@H]1O", "endpoint": "MIC", "strain": "Isolate 49", "result": "25 µg/mL"}
{"structure": "CCn1cc(C(=O)O)c(=O)c2cc(F)c(N3CCNCC3)nc21", "endpoint": "MIC90", "strain": "16 isolates", "result": "100 µg/mL"}
{"structure": "Clc1ccc(Nc2cc3nc4ccccc4n(-c4ccc(Cl)cc4)c-3cc2=NC2CCCC2)cc1", "endpoint": "MIC50", "result": "0.1 µg/mL"}
{"structure": "NC1CCN(c2nc3c(cc2F)c(=O)c(C(=O)O)cn3-c2ccc(F)cc2F)C1", "endpoint": "MIC90", "strain": "16 isolates", "result": ">100 µg/mL"}
{"structure": "O=[N+]([O-])c1cc(CSc2nc3ccccc3[nH]2)cc([N+](=O)[O-])c1", "endpoint": "MIC", "strain": "MY330/88", "result": "8 µM"}
{"structure": "CCn1cc(C(=O)O)c(=O)c2cc(F)c(N3CCNC(C)C3)c(F)c21", "endpoint": "MIC", "strain": "4 strains", "result": "2–8 µg/mL"}
{"structure": "Cc1cc(=O)c(C(=O)NC(C(=O)N[C@@H]2C(=O)N3C(C(=O)O)=C(CSc4nnnn4C)CS[C@H]23)c2ccc(O)cc2)c[nH]1", "endpoint": "MIC90", "result": "52.3 µg/mL"}
{"structure": "CCN1CCN(C(=O)NC(C(=O)N[C@@H]2C(=O)N3C(C(=O)O)=C(CSc4nnnn4C)CS[C@H]23)c2ccc(O)cc2)C(=O)C1=O", "endpoint": "MIC", "strain": "35 isolates", "result": "25 µg/mL"}
{"structure": "CN[C@@H]1[C@H](O[C@H]2[C@H](O[C@H]3[C@H](O)[C@@H](O)[C@H](N=C(N)N)[C@@H](O)[C@@H]3N=C(N)N)O[C@@H](C)[C@]2(O)C=O)O[C@@H](CO)[C@H](O)[C@H]1O", "endpoint": "MIC90", "result": "3.85 µg/mL"}
{"structure": "C[C@@H]1CN(c2c(F)c(N)c3c(=O)c(C(=O)O)cn(C4CC4)c3c2F)C[C@H](C)N1", "endpoint": "MIC", "method": "broth dilution", "strain": "4", "result": "≤0.06 µg/mL"}
{"structure": "O=[N+]([O-])[O][Ga]([O][N+](=O)[O-])[O][N+](=O)[O-]", "endpoint": "EC50", "strain": "2", "result": "<500 µM"}
{"structure": "Fc1cccc(CSc2nc3ccccc3[nH]2)c1", "endpoint": "MIC", "strain": "MY330/88", "result": "125 µM"}
{"structure": "NC[C@H]1O[C@H](O[C@H]2[C@H](O)[C@@H](O[C@H]3O[C@H](CO)[C@@H](O)[C@H](N)[C@H]3O)[C@H](N)C[C@@H]2N)[C@H](N)[C@@H](O)[C@@H]1O", "endpoint": "MIC", "strain": "Isolate 122", "result": "12.5 µg/mL"}
{"structure": "CCN(CC)CCN=c1cc2n(-c3ccc(Cl)cc3)c3ccccc3nc-2cc1Nc1ccc(Cl)cc1", "endpoint": "MIC50", "result": "0.02 µg/mL"}
{"structure": "C[C@@H]1CN(c2c(F)c(N)c3c(=O)c(C(=O)O)cn(C4CC4)c3c2F)C[C@H](C)N1", "endpoint": "MIC50", "strain": "16 isolates", "result": "1.56 µg/mL"}
{"structure": "CCn1cc(C(=O)O)c(=O)c2cc(F)c(N3CCNCC3)cc21", "endpoint": "MIC50", "result": "12.6 µg/mL"}
{"structure": "NC[C@H]1O[C@H](O[C@H]2[C@H](O)[C@@H](O[C@H]3O[C@H](CO)[C@@H](O)[C@H](N)[C@H]3O)[C@H](N)C[C@@H]2N)[C@H](O)[C@@H](O)[C@@H]1O", "endpoint": "MIC", "strain": "N-961 (HIV+)", "result": "8 µg/mL"}
{"structure": "CO[C@H]1/C=C/O[C@@]2(C)Oc3c(C)c(O)c4c(O)c(c5c(c4c3C2=O)NC2(CCN(CC(C)C)CC2)N=5)=NC(=O)/C(C)=C\\C=C\\[C@H](C)[C@H](O)[C@@H](C)[C@@H](O)[C@@H](C)[C@H](OC(C)=O)[C@@H]1C", "endpoint": "MIC90", "result": "0.41 µg/mL"}
{"structure": "CC(O)[C@H]1C(=O)N2C(C([O-])O)=C(SC3Cn4cnc[n+]4C3)[C@H](C)[C@H]12", "endpoint": "MIC90", "strain": "24 strains", "result": "32 µg/mL"}
{"structure": "Cn1nnnc1SCC1=C(C(=O)O)N2C(=O)[C@@H](NC(=O)[C@H](O)c3ccccc3)[C@H]2SC1", "endpoint": "MIC50", "result": "21.4 µg/mL"}
{"structure": "CN[C@@H]1[C@H](O[C@H]2[C@H](O[C@H]3[C@H](O)[C@@H](O)[C@H](N=C(N)N)[C@@H](O)[C@@H]3N=C(N)N)O[C@@H](C)[C@]2(O)C=O)O[C@@H](CO)[C@H](O)[C@H]1O", "endpoint": "MIC", "strain": "Isolate 122", "result": "50 µg/mL"}
{"structure": "Brc1cccc(CSc2nc3ccccc3[nH]2)c1", "endpoint": "MIC", "strain": "MY330/88", "result": ">62 µM"}
{"structure": "COC(C(N)=NC1C(=O)N2C(C(=O)[O-])=C(C[N+]3(C)C=CC=C3)CSC12)c1cnc(N)s1", "endpoint": "MIC50", "result": "17.2 µg/mL"}
{"structure": "O=[N+]([O-])c1cccc(F)c1CSc1nc2ccccc2[nH]1", "endpoint": "MIC", "strain": "MY330/88", "result": "125 µM"}
{"structure": "NCCC[C@H](N)CC(=O)N[C@H]1CNC(=O)[C@H]([C@H]2C[C@H](O)NC(N)=N2)NC(=O)/C(=C/NC(N)=O)NC(=O)[C@H](CO)NC(=O)[C@H](CO)NC1=O", "endpoint": "MIC", "strain": "TMC 1406", "result": "0.78 µg/mL"}

For reference, 3 entries again:

structure	endpoint	method	strain	result
CCn1cc(C(=O)O)c(=O)c2cc(F)c(N3CCNC(C)C3)c(F)c21	MIC		4 strains	2–8 µg/mL
CO[C@H]1/C=C/O[C@@]2(C)Oc3c(C)c(O)c4c(O)c(c5c(c4c3C2=O)NC2(CCN(CC(C)C)CC2)N=5)=NC(=O)/C(C)=C\C=C\[C@H](C)[C@H](O)[C@@H](C)[C@@H](O)[C@@H](C)[C@H](OC(C)=O)[C@@H]1C	MIC		3350-4	0.063 µg/mL
O=[N+]([O-])c1cccc(F)c1CSc1nc2ccccc2[nH]1	MIC		MY330/88	125 µM

Conditions beyond the fields shown may differ between rows. ECn is the concentration giving n% inhibition of infection, replication or growth. MIC50, MIC90 and the like: level of inhibition, or share of isolates inhibited. Two numbers with a dash give a range or band.